Measurements: paper PMC9321213

Target: biotinylated human ACE2 protein (Cat# AC2-H82E6, ACROBiosystems) (human) (UniProt Q9BYF1)
Test: BLI
Conditions: domain or fragment

Row | Substance | Kd [nM] | koff [s⁻¹]
1 | SARS-CoV-2 spike receptor-binding domain (RBD, 319-529 aa), His-tagged, synthesized by the conventional wheat germ cell-free system (WG) (from UniProt P0DTC2 319-529) | 180 | 0.00069
2 | SARS-CoV-2 spike receptor-binding domain (RBD, 319-529 aa), His-tagged, synthesized by the wheat germ cell-free system with ERO1α and PDI (EP-WG) (from UniProt P0DTC2 319-529) | 26 | 0.0063
